Results of unrelated studies side by side (data: NIAID ChemDB).

All rows: whole-cell or culture tests; organism: Mycobacterium tuberculosis

MIC bound comes from a single tested concentration.

| smiles | endpoint | setting | tested at | read by | strain or isolate | value |
|---|---|---|---|---|---|---|
| CC1CCN(C(=O)c2ccc(NC(=O)C3CC(=O)OC34CCCCC4)cc2)CC1 | MIC | - | - | resazurin | Clinical isolate | 8 µg/mL |
| C=CCn1c[n+](C)c2ncnc(NOC)c21 | inhibition | - | 6.25 µg/mL | - | - | 27% |
| CSc1ccc(-c2nn(-c3ccccc3)cc2C2CC(c3ccccc3)=NN2)cc1 | inhibition | - | 6.25 µg/mL | BACTEC | H37Rv | 25% |
| CN(C)CCCn1c(=O)nc2n(-c3ccccc3)c3ccccc3nc-2c1=O | MIC bound | - | - | BACTEC | H37Rv | >12.5 µg/mL |
| N/C(=N\N=C\c1ccccc1O)SCc1ccc(F)cc1 | MIC | 14 d | - | broth dilution | H37Rv | 32 µM |
| Oc1c(Cl)c2nc3ccccc3nc2c2ccccc12 | MIC bound | - | - | BACTEC | H37Rv | ≤12.5 µg/mL |
| CC(C)N=c1cc2n(-c3ccc(Cl)cc3)c3ccccc3nc-2cc1Nc1ccc(Cl)cc1 | MIC | - | - | - | 90-0145 (DRUG-SUS) | 0.2 µg/mL |
| CCCCCCNC(=O)c1cc(C2C3CC4CC(C3)CC2C4)c2ccccc2n1 | MIC | - | - | BACTEC | H37Ra | >6.25 µg/mL |
| CO[C@H]1/C=C/O[C@@]2(C)Oc3c(C)c(O)c4c(O)c(c(/C=N/N5CCN(C/C=C/c6ccccc6)CC5)c(O)c4c3C2=O)NC(=O)/C(C)=C\C=C\[C@H](C)[C@H](O)[C@@H](C)[C@@H](O)[C@@H](C)[C@H](OC(C)=O)[C@@H]1C | MIC | - | - | - | 2257 (RIF-S) | 0.03 µg/mL |
| Cc1ccc(CS/C(N)=N/N=C/c2ccccc2O)cc1 | MIC | 14 d | - | broth dilution | H37Rv | 32 µM |
| NCCC[C@H](N)CC(=O)N[C@H]1CNC(=O)[C@H]([C@H]2C[C@H](O)NC(N)=N2)NC(=O)/C(=C/NC(N)=O)NC(=O)[C@H](CO)NC(=O)[C@H](CO)NC1=O | MIC | - | - | - | H37RV (VIM-R) | >40 µg/mL |
| CC1=NN(c2cc(Cl)c(S(=O)(=O)O)cc2Cl)C(=O)C1 | MIC bound | - | - | resazurin | H37Rv | >6.25 µg/mL |
| Cc1c[nH]c(C(=O)O)c1-c1ccc2c(-c3ccccc3)nc3ccccc3n12 | MIC | - | - | - | H37Rv | >12.5 µg/mL |
| O=C(CCCCC(=O)N/N=C/c1cccc([N+](=O)[O-])c1)N/N=C/c1cccc([N+](=O)[O-])c1 | MIC bound | - | - | BACTEC | H37Rv | >12.5 µg/mL |
| NCC[C@H](O)C(=O)N[C@@H]1C[C@H](N)[C@@H](O[C@H]2O[C@H](CN)[C@@H](O)[C@H](O)[C@H]2O)[C@H](O)[C@H]1O[C@H]1O[C@H](CO)[C@@H](O)[C@H](N)[C@H]1O | MIC | - | - | - | H37Rv | 0.5 µg/mL |
| CC1CCN(C(=S)S)CC1.CC1CCNCC1 | MIC | - | - | BACTEC | H37Rv | 1.6 µg/mL |
| COc1cccc(C(=O)O/N=C(\C)c2ccccn2)c1OC | MIC | - | - | resazurin | 18b | 8 µg/mL |
| CC(C)(C)c1ccc(CNC(=S)c2ccccc2O)cc1 | MIC | - | - | - | My 331/88 | 1 µg/mL |
| O=C(Nc1ccccc1)c1cc(C2C3CC4CC(C3)CC2C4)c2ccccc2n1 | MIC | - | - | BACTEC | H37Ra | 3.125 µg/mL |
| Cc1cccc(O)c1C(=S)NCc1ccc(Cl)cc1 | MIC | - | - | - | My 331/88 | 2 µg/mL |
| N#Cc1nc2cc(C(F)(F)F)ccc2nc1Cl | inhibition | - | 12.5 µg/mL | - | H37Rv | 37% |
| N/C(=N\N=C\c1cc(Br)ccc1O)SCc1ccc(F)cc1 | MIC | 21 d | - | broth dilution | H37Rv | 16 µM |
| O=C(/C=C/C=C/c1ccc2c(c1)OCO2)NC12CC3CC(CC(C3)C1)C2 | MIC | - | - | resazurin | H37Rv | 0.36 µM |
| NNC(=O)c1ccc2ccccc2n1 | inhibition | - | 6.25 µg/mL | BACTEC | H37Ra | 0% |
| CC1COc2c(N3CCN(C)CC3)c(F)cc3c(=O)c(C(=O)O)cn1c23 | MIC90 | - | - | - | 11 strains (drug-resistant) | 0.92 µg/mL |
| CSc1ccc(-c2nn(-c3ccccc3)cc2C2CC(c3ccc(O)cc3)=NN2)cc1 | inhibition | - | 6.25 µg/mL | BACTEC | H37Rv | 42% |
| Fc1ccc(CNc2ccc(Cl)nn2)cc1 | MIC | - | - | resazurin | Clinical isolate | 16 µg/mL |
| Cc1c[nH]c(C(=O)O)c1-c1cc2c(-c3ccccc3)nc3ccccc3n2c1 | EC50 | - | - | - | H37Rv | >12.5 µg/mL |
| N/C(=N\N=C\c1cc(Cl)ccc1O)SCc1cccc(Cl)c1 | MIC | 21 d | - | broth dilution | H37Rv | 32 µM |
| CC(=O)Oc1ccc2c3c4nc5ccccc5nc4cc(OC(C)=O)c3n(C)c2c1 | inhibition | - | 12.5 µg/mL | BACTEC | H37Rv | 13% |
| N/C(=N\N=C\c1cc(Br)ccc1O)SCc1ccc(Br)cc1 | MIC | 14 d | - | broth dilution | H37Rv | 16 µM |
| C[C@@H]1[C@@H](NC(=O)/C=C/C=C/c2ccc3c(c2)OCO3)C[C@@H](C)C(C)(C)[C@H]1C | MIC | - | - | resazurin | H37Rv | 0.18 µM |
| C[C@@H]1CN(c2c(F)c(N)c3c(=O)c(C(=O)O)cn(C4CC4)c3c2F)C[C@H](C)N1 | MIC90 | - | - | - | 100 isolates | 2 µg/mL |
| CC[C@H]1[C@@H]2C[C@H]3[C@@H]4N(C)c5ccccc5[C@]45C[C@@H]([C@@H]2[C@H]5O)N3[C@@H]1O | MIC | - | - | BACTEC | H37Rv | ≥128 µg/mL |
| CC1(C)[C@@H]2CC[C@@]1(C)[C@H](O)[C@@H]2NC(=O)/C=C/C=C/c1ccc2c(c1)OCO2 | MIC | - | - | resazurin | H37Rv | 0.17 µM |
| CCCC(C)C(=O)Nc1nc2c(s1)C(=O)CC(C)(C)C2 | MIC | - | - | resazurin | Clinical isolate | 2 µg/mL |
| OC1C(O)C2OC(c3ccccc3)OC2C2OC(c3ccccc3)OC12 | inhibition | - | 12.5 µg/mL | BACTEC | H37Rv | 0% |
| Oc1ccccc1C(=S)NCc1ccc(Cl)cc1 | MIC | - | - | - | My 331/88 | 1 µg/mL |
| Cc1cc(CN2CCN(Cc3ccc4c(c3)OCO4)CC2)c(-c2ccccc2)n1NC(=O)c1cnccn1 | MIC | - | - | - | 27294 | >16 µg/mL |
| COc1ccc(C2OC3=Nc4ccccc4NC3C2=O)cc1OC | inhibition | - | 12.5 µg/mL | BACTEC | H37Rv | -17% |
| NNC(=O)c1ccncc1 | MIC | - | - | - | 90-0216 (DRUG-SUS) | 0.02 µg/mL |
| CO[C@H]1/C=C/O[C@@]2(C)Oc3c(C)c(O)c4c(O)c(cc(O)c4c3C2=O)NC(=O)/C(C)=C\C=C\[C@H](C)[C@H](O)[C@@H](C)[C@@H](O)[C@@H](C)[C@H](OC(C)=O)[C@@H]1C | MIC | - | - | - | Aoyama B (PAS-resistant) | 12.5 µg/mL |
| C[C@H]1CN(c2c(F)cc3c(=O)c(C(=O)O)cn(C4CC4)c3c2OC(F)F)CCN1 | MIC90 | - | - | - | 100 isolates | 0.5 µg/mL |
| CONc1ncnc2c1n(C/C=C(\C)CCC=C(C)C)c[n+]2C | inhibition | - | 6.25 µg/mL | - | - | 27% |
| Cc1c[nH]c(C(=O)NN)c1-c1cc2c(-c3ccccc3)nc3ccccc3n2c1 | EC50 | - | - | - | H37Rv | <12.5 µg/mL |
| Nc1ccc([N+](=O)[O-])c2c1Oc1ccccc1O2 | MIC bound | - | - | resazurin | H37Rv | >6.25 µg/mL |
| COc1ccc(C2=NN(C(C)=O)C(c3cn(-c4ccccc4)nc3-c3ccc(SC)cc3)C2)cc1 | inhibition | - | 6.25 µg/mL | BACTEC | H37Rv | 55% |
| COC12CC3C4CCC5CC(O)CCC5(C)C4CCC3(C)C1C(C)C1(CCC(C)CO1)O2 | MIC bound | - | - | BACTEC | H37Rv | >12.5 µg/mL |
| CSc1ccc(-c2nn(-c3ccccc3)cc2C2CC(c3ccc(Br)cc3)=NN2)cc1 | inhibition | - | 6.25 µg/mL | BACTEC | H37Rv | 24% |
| NNC(=O)c1cc(C2CCCCC2)c2c(C3CCCCC3)cccc2n1 | MIC | - | - | BACTEC | H37Ra | 6.25 µg/mL |
| N#Cc1c(Nc2ccccc2)[n+]([O-])c2ccc(Cl)cc2[n+]1[O-] | inhibition | - | 12.5 µg/mL | - | H37Rv | 99% |
| N/C(=N\N=C\c1cc(Cl)cc(Cl)c1O)SCc1cccc(Cl)c1 | MIC | 14 d | - | broth dilution | H37Rv | 16 µM |
| CSc1ccc(-c2nn(-c3ccccc3)cc2C2CC(c3ccc(O)cc3)=NN2C(C)=O)cc1 | inhibition | - | 6.25 µg/mL | BACTEC | H37Rv | 42% |
| COc1ccccc1N1CCN(Cc2cc(-c3c(C)ccc4ccccc34)[nH]c2-c2ccc(Cl)cc2)CC1 | MIC | - | - | - | 27294 | 8 µg/mL |
| NNC(=O)Cc1cc(C2CCCC2)nc2c(C3CCCC3)cccc12 | MIC | - | - | BACTEC | H37Ra | >6.25 µg/mL |
| CC1(C)c2ccccc2-c2nc3ccccc3c3c2C1OC3=O | inhibition | - | 6.25 µg/mL | BACTEC | H37Rv | 0% |
| C/C=C/C/C=C/CCC(=O)[C@H]1O[C@H]1C(N)=O | MIC | - | - | - | 90-0145 (DRUG-SUS) | 2.5 µg/mL |
| O=C1C[C@@H](c2ccccc2)Oc2cc(O)cc(O)c21 | MIC bound | - | - | BACTEC | H37Rv | >12.5 µg/mL |
| O=C(/C=C/C=C/c1ccc2c(c1)OCO2)NC1C2CC3CC(C2)CC1C3 | MIC | - | - | resazurin | H37Rv | 1.42 µM |
| CSc1ccc(-c2nn(-c3ccccc3)cc2C2CC(c3ccccc3O)=NN2C(C)=O)cc1 | inhibition | - | 6.25 µg/mL | BACTEC | H37Rv | 0% |
| CO[C@H]1/C=C/O[C@@]2(C)Oc3c(C)c(O)c4c(O)c(c5c(c4c3C2=O)NC2(CCN(CC(C)C)CC2)N=5)=NC(=O)/C(C)=C\C=C\[C@H](C)[C@H](O)[C@@H](C)[C@@H](O)[C@@H](C)[C@H](OC(C)=O)[C@@H]1C | MIC | - | - | - | 1 isolates (Gln490His) | >5 µg/mL |
| NNC(=O)c1cc(C2CCCC2)c2ccccc2n1 | MIC | - | - | BACTEC | H37Ra | >6.25 µg/mL |
| COc1ccccc1N1CCN(Cc2cc(-c3ccc(Cl)cc3)n(NC(=O)c3cnccn3)c2C)CC1 | MIC | - | - | - | 27294 | >16 µg/mL |
| N#Cc1c(N)nc2c3c1NC(=O)C(C(N)=O)C3c1ccccc1O2 | MIC bound | - | - | resazurin | H37Rv | >6.25 µg/mL |
| COc1ccc2nc(C(F)(F)C(F)(F)F)c(C#N)c(N)c2c1 | MIC | - | - | resazurin | Clinical isolate | 8 µg/mL |
| Cc1ccc(O)c(C(=S)NCc2cccc([N+](=O)[O-])c2)c1 | MIC | - | - | - | My 331/88 | 2 µg/mL |
| O=c1[nH]c2ccc(Cl)cc2c(=O)o1 | inhibition | - | 6.25 µg/mL | resazurin | H37Rv | 8% |
| NCCCC(N)CC(=O)NCC1NC(=O)C(CO)NC(=O)C(NC(=O)CC(N)CCCN)CNC(=O)C(C2CCN=C(N)N2)NC(=O)/C(=C/NC(N)=O)NC1=O | MIC | - | - | - | Isolate VIM-R/5 | 20 µg/mL |
| CO[C@H]1/C=C/O[C@@]2(C)Oc3c(C)c(OC(C)=O)c4c(c3C2=O)C(=O)C=C(NC(=O)/C(C)=C\C=C\[C@H](C)[C@H](O)[C@@H](C)[C@@H](O)[C@@H](C)[C@H](OC(C)=O)[C@@H]1C)C4=O | MIC | - | - | BACTEC | H37Rv | <0.025 µg/mL |
| Cc1ccc(CS/C(N)=N/N=C/c2cc(Cl)ccc2O)cc1 | MIC | 21 d | - | broth dilution | H37Rv | 32 µM |
| N#Cc1nc2cc(Cl)ccc2nc1N | MIC | - | - | - | H37Rv | >12.5 µg/mL |
| CC(O)C1(O)C(O)CC(OC2c3cc4c(c(O)c3[C@@H]3C[C@@]2(C)OC32C=c3cc[nH]c3=N2)C(=O)c2cccc(O)c2C4=O)OC1C | MIC | - | - | - | RMP-R | 0.8 µg/mL |
| NNC(=O)c1ccncc1 | MIC | - | - | - | Isolate H | 0.031 µg/mL |
| CN[C@@H]1[C@H](O[C@H]2[C@H](O[C@@H]3[C@H](O)[C@@H](O)[C@@H](OC(N)=O)[C@@H](O)[C@@H]3N=C(N)N)O[C@@H](C)[C@]2(O)CO)O[C@@H](CO)[C@H](O)[C@H]1O | inhibition | - | 12.8 µg/mL | BACTEC | H37Rv | 90% |
| CCC1CCC[C@H](NC(=O)/C=C/C=C/c2ccc3c(c2)OCO3)C1 | MIC | - | - | resazurin | H37Rv | 1.6 µM |
| Cc1ccc(-c2n[nH]c(=O)n2N2C(=O)C=CC2=O)cc1 | inhibition | - | 12.5 µg/mL | BACTEC | H37Rv | 0% |
| N/C(=N\N=C\c1cc(Cl)cc(Cl)c1O)SCc1ccc(Br)cc1 | MIC | 14 d | - | broth dilution | H37Rv | 16 µM |
| NCC(=O)N/N=C/c1ccc([N+](=O)[O-])o1 | MIC | - | - | - | TAC-R | 6.3 µg/mL |
| Cc1cc(CN2CCN(c3cccc(C(F)(F)F)c3)CC2)c(-c2ccc(Cl)cc2)n1NC(=O)c1cnccn1 | MIC | - | - | - | 27294 | >16 µg/mL |

6 of the rows above, restated:

| smiles | endpoint | setting | tested at | read by | strain or isolate | value |
|---|---|---|---|---|---|---|
| O=C(/C=C/C=C/c1ccc2c(c1)OCO2)NC1C2CC3CC(C2)CC1C3 | MIC | - | - | resazurin | H37Rv | 1.42 µM |
| Nc1ccc([N+](=O)[O-])c2c1Oc1ccccc1O2 | MIC bound | - | - | resazurin | H37Rv | >6.25 µg/mL |
| NNC(=O)c1cc(C2CCCC2)c2ccccc2n1 | MIC | - | - | BACTEC | H37Ra | >6.25 µg/mL |
| CN[C@@H]1[C@H](O[C@H]2[C@H](O[C@@H]3[C@H](O)[C@@H](O)[C@@H](OC(N)=O)[C@@H](O)[C@@H]3N=C(N)N)O[C@@H](C)[C@]2(O)CO)O[C@@H](CO)[C@H](O)[C@H]1O | inhibition | - | 12.8 µg/mL | BACTEC | H37Rv | 90% |
| Cc1c[nH]c(C(=O)O)c1-c1cc2c(-c3ccccc3)nc3ccccc3n2c1 | EC50 | - | - | - | H37Rv | >12.5 µg/mL |
| N/C(=N\N=C\c1cc(Br)ccc1O)SCc1ccc(Br)cc1 | MIC | 14 d | - | broth dilution | H37Rv | 16 µM |

Neighbouring rows are from separate reports. ECn: concentration that inhibits the pathogen or its effect by n%. A number after MIC or MFC names an inhibition level or a share of isolates. Blank or dashed fields: not listed here. Percent inhibition refers to the dose given; in toxicity tests it is the harm to the cells.